Tested on: SARS-CoV-2
Test: Antiviral activity against SARS-CoV-2 (USA-WA1/2020 strain) measured by imaging in HRCE cells at MOI 0.4 after 96 hrs (reported as hit score from 0-1 for on-disease vs off-disease activity: scores >0.6 considered hits)
Format: functional
Settings: Homo sapiens

SMILES: CC1(C)C2CCC1(CS(=O)(=O)O)C(=O)C2=Cc1ccc(C=C2C(=O)C3(CS(=O)(=O)O)CCC2C3(C)C)cc1.OCCN(CCO)CCO.OCCN(CCO)CCO
- Hit score: 0.179
